In paper PMC8441738 (MedComm, 2021):

Molecular target: SARS-CoV-2 RBD (residues Arg319-Phe541), His-tagged (SARS-CoV-2, UniProt P0DTC2)
Test: SPR

B1: MA5 monoclonal antibody (antibody, V domains shown)
VH: EVMLVESGGGLVKPGGSLKLSCAASGFMFSRYAMSWVRQTPEKRLEWVATISSGGSYTYYPDSVKGRFTMSRDNAKNTLYLQMSSLRSEDTAMYNCARHDGNYVDYAMDYWGQGTSVTVSS
VL: QIVLTQSPAIMSASLGEEITLTCSASSSVSHMHWYQQKSGTSPKLLIYSTFNLASGVPSRFSGSGSGTFYSLTISSVEAEDAADYYCHQWSSWTFGGGTKLEIK
notes: also called group IV mAb; source: hybridoma cell line or transfection of linear expression cassettes
**Q.** Does B1 bind?
**A.** Result: binds
